# Only a part is listed here, and it is no random draw.
# System: Toxoplasma gondii
# Test: In vitro enzyme assay to detect hydrolysis of chlorophenol red-beta-D-[…] directly proportional to the number of Toxoplasma stably expressing beta-galactosidase
# Format: functional, organism-based
# Parameters: scale not given: in the data most compounds retested in dose-response had high values
# Conditions: 50 µM
smiles,measurement,value
NC(CF)c1ccc(F)cc1 (stereo unspecified),Percent Effect,-1.87%
